Test results reported in PMC7112612 (The Journal of Infection, 2013).

Legend:
MERS-CoV [1] = type: cell-based
MERS-CoV [2] = type: cell-based; remark: listed apart in the source
MERS-CoV [3] = type: cell-based; remark: listed apart in the source

Substance	maximum percentage of plaque reduction (MERS-CoV [1])	EC50 (MERS-CoV [2])	EC99 (MERS-CoV [2])	CC50 (Vero cells)	anti-MERS-CoV activity at the tested concentrations (in words) (MERS-CoV [3])	concentration achieving 100% plaque reduction (MERS-CoV [1])	EC90 (MERS-CoV [2])	reduction in viral load (MERS-CoV [2])
Avonex	70.2%	5073.33 ± 7333.86 IU/ml	708919.75 ± 840503.36 IU/ml	>75,000 IU/ml	showed anti-MERS-CoV activity	–	–	–
Intron A	76.2%	6709.79 ± 1747.97 IU/ml	371242.78 ± 255482.32 IU/ml	>75,000 IU/ml	showed anti-MERS-CoV activity	–	–	–
Rebif	–	480.54 ± 183.85 IU/ml	3599.06 ± 778.81 IU/ml	15,625 IU/ml	showed anti-MERS-CoV activity	62,500 IU/ml	2473.86 ± 576.35 IU/ml	> 2 log
